Pooled drug test results. Numbers come from NIAID ChemDB, via PubChem.

Shared fields: whole-cell or culture tests; species: Mycobacterium aurum

Conditions beyond the fields shown may differ between rows. Blank or dashed fields: not listed here. A number after MIC or MFC names an inhibition level or a share of isolates.

SMILES,read-out,read by,changes,strain,value
CC[C@@H](CO)NCCN[C@@H](CC)CO,MIC,-,-,-,1 µg/mL
CC(C)(C)n1cc(C(=O)O)c(=O)c2cc(F)c(N3CCC(N)C3)nc21,MIC,-,-,ATCC23366,≤0.03 µg/mL
CC(=O)O[C@H]1CC[C@]2(C)[C@H]3COC(=O)C3=CC[C@H]2C1(C)C,MIC,-,-,-,>128 µg/mL
NNC(=O)c1ccncc1,MIC,-,-,A+,0.03 µg/mL
C[C@H]1COC2(CCN(C3=NC(=O)c4cc(C(F)(F)F)cc([N+](=O)[O-])c4S3(=O)=O)CC2)O1,MIC,broth dilution / turbidity,-,SB66,>200 µg/mL
C=C1C2CC[C@H](C=O)C(O)(C=O)[C@@]2(C)CC[C@@H]1C,MIC,-,-,-,32 µg/mL
C=C[C@@](C)(/C=C/c1ccc(O)cc1)CCC=C(C)C,MIC50,-,-,-,15.79 µg/mL
CC1(C)CCC[C@]2(C)[C@H]3COC(=O)C3=CC[C@@H]12,MIC,-,-,-,>128 µg/mL
C[C@@H]1CN(c2nc3c(cc2F)c(=O)c(C(=O)O)cn3C(C)(C)C)C[C@H](C)N1,MIC,-,-,ATCC23366,0.06 µg/mL
C=C1[C@@H](C)CC[C@@]2(C)[C@H]1CC=C1C(=O)O[C@@H](O)[C@@]12O,MIC,-,-,-,>128 µg/mL
CC1CN(c2nc3c(cc2F)c(=O)c(C(=O)O)cn3C(C)(C)C)CCN1,MIC,-,-,ATCC23366,0.06 µg/mL
COc1nc2ccc(Br)cc2cc1[C@@H](c1ccccc1)[C@@](O)(CCN(C)C)c1cccc2ccccc12,MIC,resazurin,G364T,-,0.04 µg/mL
CC1CN(c2c(F)cc3c(=O)c(C(=O)O)cn(C4CC4)c3c2Br)CCN1,MIC,-,-,ATCC23366,0.06 µg/mL
NNC(=O)c1ccncc1,MIC,-,-,A+ (INH-S),1 µg/mL

For reference, 2 entries again:

SMILES,read-out,read by,changes,strain,value
C=C1[C@@H](C)CC[C@@]2(C)[C@H]1CC=C1C(=O)O[C@@H](O)[C@@]12O,MIC,-,-,-,>128 µg/mL
CC(=O)O[C@H]1CC[C@]2(C)[C@H]3COC(=O)C3=CC[C@H]2C1(C)C,MIC,-,-,-,>128 µg/mL